Where two headings read alike, the source gives them in different places.
Assays:
[1] = female rats
hemolysis = conditions: as amphotericin B; result of reference CN 1596129 A example 3; cited from earlier work
[2] = i.v. 5 mg/kg (amphotericin B equivalent), 1 d
[3] = i.v. 5 mg/kg (amphotericin B equivalent), 2 d
[4] = i.v. 5 mg/kg (amphotericin B equivalent), 3 d
[5] = i.v. 5 mg/kg (amphotericin B equivalent), 4 d
[6] = i.v. 5 mg/kg (amphotericin B equivalent), 5 d
[7] = i.v. 5 mg/kg (amphotericin B equivalent), 6 d
[8] = i.v. 5 mg/kg (amphotericin B equivalent), 7 d
[9] = i.v. 5 mg/kg (amphotericin B equivalent), 8 d
[10] = i.v. 10 mg/kg (amphotericin B equivalent), 1 d
[11] = i.v. 10 mg/kg (amphotericin B equivalent), 2 d
[12] = i.v. 10 mg/kg (amphotericin B equivalent), 3 d
[13] = i.v. 10 mg/kg (amphotericin B equivalent), 4 d
[14] = i.v. 10 mg/kg (amphotericin B equivalent), 5 d
[15] = i.v. 10 mg/kg (amphotericin B equivalent), 6 d
[16] = i.v. 10 mg/kg (amphotericin B equivalent), 7 d
[17] = i.v. 10 mg/kg (amphotericin B equivalent), 8 d
[18] = i.v. 15 mg/kg (amphotericin B equivalent), 1 d
[19] = i.v. 15 mg/kg (amphotericin B equivalent), 2 d
[20] = i.v. 15 mg/kg (amphotericin B equivalent), 3 d
[21] = i.v. 15 mg/kg (amphotericin B equivalent), 4 d
[22] = i.v. 15 mg/kg (amphotericin B equivalent), 5 d
[23] = i.v. 15 mg/kg (amphotericin B equivalent), 6 d
[24] = i.v. 15 mg/kg (amphotericin B equivalent), 7 d
[25] = i.v. 15 mg/kg (amphotericin B equivalent), 8 d
[26] = i.v. 18 mg/kg (amphotericin B equivalent), 1 d
[27] = i.v. 18 mg/kg (amphotericin B equivalent), 2 d
[28] = i.v. 30 mg/kg (amphotericin B equivalent), 1 d

## poly-aspartic acid-amphotericin B polyconjugate [Preparation 1]
[1]; [2]
  Body weight: 144.0 g
  percentage weight increment compared to Day 0: (−7.4%)
[1]; [3]
  Body weight: 146.0 g
  percentage weight increment compared to Day 0: (−6.1%)
[1]; [4]
  Body weight: 143.2 g
  percentage weight increment compared to Day 0: (−7.9%)
[1]; [5]
  Body weight: 140.2 g
  percentage weight increment compared to Day 0: (−9.8%)
[1]; [6]
  Body weight: 140.5 g
  percentage weight increment compared to Day 0: (−9.7%)
[1]; [7]
  Body weight: 143.0 g
  percentage weight increment compared to Day 0: (−8.0%)
[1]; [8]
  Body weight: 149.0 g
  percentage weight increment compared to Day 0: (−4.2%)
[1]; [9]
  Body weight: 151.5 g
  percentage weight increment compared to Day 0: (−2.6%)
[1]; [10]
  Body weight: 110.1 g
  percentage weight increment compared to Day 0: (−12.1%)
[1]; [11]
  Body weight: 114.0 g
  percentage weight increment compared to Day 0: (−9.0%)
[1]; [12]
  Body weight: 109.0 g
  percentage weight increment compared to Day 0: (−13.0%)
[1]; [13]
  Body weight: 109.4 g
  percentage weight increment compared to Day 0: (−12.7%)
[1]; [14]
  Body weight: 116.8 g
  percentage weight increment compared to Day 0: (−6.8%)
[1]; [15]
  Body weight: 124.5 g
  percentage weight increment compared to Day 0: (−0.6%)
[1]; [16]
  Body weight: 131.5 g
  percentage weight increment compared to Day 0: (+5.0%)
[1]; [17]
  Body weight: 133.6 g
  percentage weight increment compared to Day 0: (+6.6%)
[1]; [18]
  Body weight: 129.4 g
  percentage weight increment compared to Day 0: (−11.0%)
[1]; [19]
  Body weight: 134.3 g
  percentage weight increment compared to Day 0: (−7.6%)
[1]; [20]
  Body weight: 130.5 g
  percentage weight increment compared to Day 0: (−10.3%)
[1]; [21]
  Body weight: 125.1 g
  percentage weight increment compared to Day 0: (−14.0%)
[1]; [22]
  Body weight: 129.3 g
  percentage weight increment compared to Day 0: (−11.1%)
[1]; [23]
  Body weight: 136.6 g
  percentage weight increment compared to Day 0: (−6.1%)
[1]; [24]
  Body weight: 145.5 g
  percentage weight increment compared to Day 0: (+0.1%)
[1]; [25]
  Body weight: 148.3 g
  percentage weight increment compared to Day 0: (+2.0%)
[1]; [26]
  Body weight: 145.0 g
  percentage weight increment compared to Day 0: (−10.1%)
[1]; [27]
  Body weight: 139.5 g
  percentage weight increment compared to Day 0: (−13.5%)
[1]; [28]
  Body weight: 125.9 g
  percentage weight increment compared to Day 0: (−9.8%)

## amphotericin B-hydroxyethyl starch polyconjugate [Preparation 22]
hemolysis
  concentration at which hemolysis began: 400 µg/mL
